# Measurements from PubChem BioAssay AID624416 (The Scripps Research Institute Molecular Screening Center, 2012).
# This is a selection; strong and weak results do not stand in their true shares. The source made the active and inactive calls. Rule as the data show it: active = inhibition above about 8.5%; inactive = the rest.
# Tested on: HIV-1 gp120 / PG9 antibody interaction
# Assay: binders of HIV-1 gp120 antibody PG9, primary screen, biochemical, TR-FRET (AID 624416)
# Details: TR-FRET gp120-PG9 antibody binding; at 6.7 µM; hits give high values
row,Structure (SMILES),inhibition
1,COP1(=S)c2c(C)nn(CCC#N)c2N=C(c2ccc(F)cc2)N1C (stereo unspecified),inactive: -0.16%
2,COC(=O)C1(C)COP(=O)(N2CCCC2)OC1 (stereo unspecified),inactive: -1.47%
3,O=C(O)C(=O)c1ccc(N(CCCl)CCCl)cc1,inactive: -2.52%
4,O=C(COc1ccccc1)OC1CN2CCC1CC2 (stereo unspecified),inactive: 0.22%
5,O=C(Nc1ccncc1[N+](=O)[O-])c1ccc([N+](=O)[O-])cc1[N+](=O)[O-],inactive: 0.41%
6,O=C(OC1CN2CCC1CC2)c1cccc([N+](=O)[O-])c1 (stereo unspecified),inactive: -2.76%
7,CCOC(=O)c1ccc(NC(=O)C(C)(CCl)SC)cc1 (stereo unspecified),inactive: -4.16%
8,CCC(C)N(CC(C)C)C(=S)SC(NC(C)=O)C(Cl)(Cl)Cl (stereo unspecified),inactive: -2.01%
9,O=C(O)C(O)c1ccc(N(CCCl)CCCl)cc1 (stereo unspecified),inactive: -0.05%
10,CCOC(=O)Nc1ccc([As](=O)(O)O)c(O)c1,inactive: 0.33%
11,CC1CCNP(=O)(N(CCCl)CCCl)O1 (stereo unspecified),inactive: -0.4%
12,COP(=O)(OC)N1CC1c1ccccc1 (stereo unspecified),inactive: -0.41%
13,CCCCOc1ccc(C(=O)NCC2(N3CCCCC3)CCCCC2)cc1OC,inactive: -2.42%
14,Cc1cc(SC(NC(=O)c2ccccc2)C(Cl)(Cl)Cl)nc(C(C)C)n1 (stereo unspecified),inactive: 0.24%
15,CCOC(=O)Nc1cccc([As](=O)(O)O)c1,inactive: 1%
16,Cc1cc(SC(NC=O)C(Cl)(Cl)Cl)ncn1 (stereo unspecified),inactive: -2.58%
17,O=P(Nc1ccccn1)(c1cccc2ccccc12)c1cccc2ccccc12,inactive: -1.72%
18,O=[N+]([O-])c1ccc(Nc2ccc(Oc3ccc([N+](=O)[O-])cc3[N+](=O)[O-])cc2)c([N+](=O)[O-])c1,inactive: 1.28%
19,O=[As](O)(c1ccc(O)cc1)c1ccccc1O,inactive: -0.7%
20,C[As](=O)(O)c1cccc(C(=O)O)c1,inactive: -1.71%
21,COc1cc(C(=O)NCC2(N3CCOCC3)CCCCC2)ccc1OCC(C)C,inactive: -1.95%
22,O=[N+]([O-])c1ccc(-c2cc([N+](=O)[O-])c(O)c([N+](=O)[O-])c2)cc1,inactive: 0.52%
23,Cc1ccc(OP(=O)(Nc2ccc([N+](=O)[O-])cn2)Oc2ccc(C)cc2)cc1,inactive: 1.23%
24,[N-]=[N+]=NC1CCCCC1NC(=O)c1cc([N+](=O)[O-])cc([N+](=O)[O-])c1 (stereo unspecified),inactive: -1.11%
25,Cc1ccc2nc3c(c(C)c2c1)CC(C(Cl)Cl)S3 (stereo unspecified),inactive: -0.42%
26,ClCCSc1nnc(-c2cccnc2)o1,inactive: -1.59%

row,Structure (SMILES),inhibition
1,CC(C)c1ccc(OP(=O)(Nc2ccccn2)Oc2ccccc2F)cc1 (stereo unspecified),inactive: 0.3%
2,COC(=O)C1(C)COP(=O)(N2CCCCCC2)OC1 (stereo unspecified),inactive: -0.22%
3,CCN(CC)C(=S)SC(NC=O)C(Cl)(Cl)Cl (stereo unspecified),inactive: -1.01%
4,O=C(OC1CN2CCC1CC2)c1cccc2[nH]cnc12 (stereo unspecified),inactive: 0.02%
5,CC(C)NC(=O)NP(=O)(Oc1ccccc1)Oc1ccccc1,inactive: 0.7%
6,Cc1c2c(nc3ccccc13)SC(C(Cl)Cl)C2 (stereo unspecified),inactive: -3.43%
7,O=C(OC1CN2CCC1CC2)C12CC3CC(CC(C3)C1)C2 (stereo unspecified),inactive: 1.16%
8,Cc1cc(=O)[nH]c(N[N+](=O)[O-])n1,inactive: -0.06%
9,O=P1(N(CCCl)CCCl)Nc2ccccc2N1,inactive: -1.83%
10,O=P1(N(CCCl)CCCl)OCCCN1CCCl (stereo unspecified),inactive: -1.82%
11,COc1ccc2nc(NP(=O)(c3ccccc3)c3ccccc3)sc2c1,inactive: -0.14%
12,COc1cc(I)ccc1[As](=O)(O)O,inactive: 2.22%
13,O=[N+]([O-])c1cc(Oc2ccc([N+](=O)[O-])cc2C(F)(F)F)cc([N+](=O)[O-])c1,inactive: -0.74%
14,COc1ccc(N/C(=N/P(=O)(N2CCOCC2)N2CCOCC2)N2CCOCC2)cc1,inactive: 0.95%
15,O=C(OC1CN2CCC1CC2)c1ccc(Cl)cc1 (stereo unspecified),inactive: 0.99%
16,COc1cc(C(=O)NCC2(N3CCOCC3)CCCCC2)cc(Cl)c1OC(C)C,inactive: -1.74%
17,O=[As](O)(O)c1cccnc1,inactive: -1.36%
18,CS(=O)(=O)c1ccc(Cl)c(NC(=O)COC(=O)C(O)(c2ccccc2)c2ccccc2)c1,inactive: -1.58%
19,O=[As](O)(c1cccc(O)c1)c1cccc(O)c1,inactive: 1.4%
20,Cc1cccc(OCC(=O)OC2CN3CCC2CC3)c1 (stereo unspecified),inactive: -1.82%
21,Cc1ccc(NCCc2c([N+](=O)[O-])cc([N+](=O)[O-])cc2[N+](=O)[O-])cc1,inactive: -0.89%
22,Nc1cccc2c([As](=O)(O)O)cccc12,inactive: -3.43%
23,CCCOP(=S)(Nc1nc(N)cc(=O)[nH]1)OCCC,inactive: 0.48%
24,COc1cc(C2NCCC3(OCCO3)C2(C)C)cc(OC)c1OC (stereo unspecified),inactive: -0.88%
25,CCOP(=O)(Nc1cccc2ccccc12)OCC,inactive: -0.38%
26,CCOP1(=S)c2c(C)nn(CCC#N)c2N=C(c2ccccc2F)N1C (stereo unspecified),inactive: 0.79%

row,Structure (SMILES),inhibition
1,O=P(Nc1nccs1)(Oc1ccccc1)Oc1ccccc1,inactive: 1.24%
2,O=C(O)COc1ccc([As](=O)(O)O)cc1[N+](=O)[O-],inactive: -0.78%
3,Nc1ccccc1[As](=O)(O)c1ccccc1,inactive: 0.07%
4,NC(=O)Nc1ccc([As](=O)(O)O)cc1,inactive: 0.47%
5,N#CCCN(C(=O)COC(=O)C(O)(c1ccccc1)c1ccccc1)c1ccc(F)cc1,inactive: -0.98%
6,CN(C(=O)Cc1ccccc1)[C@@H]1CC[C@]2(CCCO2)C[C@H]1N1CCCC1,inactive: -1.51%
7,CCOP1(=S)c2c(C)nn(CCC#N)c2N=C(c2ccc(F)cc2)N1C (stereo unspecified),inactive: 0.14%
8,CN(C)C(=O)c1cc([N+](=O)[O-])cc2c1-c1c(cc([N+](=O)[O-])cc1[N+](=O)[O-])C2=O,inactive: -2.96%
9,O=[N+]([O-])c1ccc2c(c1)nnn2O,inactive: 1.67%
10,CN(C(=O)Cc1ccc(Cl)c(Cl)c1)[C@H]1CC[C@@]2(CCCO2)C[C@@H]1N1CCCC1,inactive: -1.11%
11,Cc1nn(-c2ccccc2)c2c1P(=O)(N1CCOCC1)N(C)C(c1ccccc1)=N2 (stereo unspecified),inactive: -1.62%
12,Cc1ccc(C(=O)OC2CN3CCC2CC3)cc1 (stereo unspecified),inactive: -1.45%
13,CC1CCC(C(C)C)C(OP(=O)(Nc2ccccn2)c2ccccc2)C1 (stereo unspecified),inactive: -1.46%
14,CN(C)C1(CNC(=O)c2ccc(S(C)(=O)=O)cc2)CCCCC1,inactive: 0.65%
15,O=C(/C=C/c1ccccc1)OC1CN2CCC1CC2 (stereo unspecified),inactive: 1.18%
16,CCCC1OP(=O)(Nc2ccccc2)OCC1CC (stereo unspecified),inactive: 0.13%
17,Cc1ccc(S(=O)(=O)N(CCCN)CCCc2c(C)nc(N)[nH]c2=O)cc1,inactive: 1.22%
18,O=P1(Nc2ncccn2)COc2ccccc2OC1,inactive: 1.67%
19,Nc1cccc([As](=O)(O)c2ccccc2)c1,inactive: 0.28%
20,NS(=O)(=O)c1cccc(NC(=O)COC(=O)C(O)(c2ccccc2)c2ccccc2)c1,inactive: -0.28%
21,O=P1(Nc2ccc(Br)cn2)COc2ccccc2OC1,inactive: -1.68%
22,Cc1ccc(OCC(=O)OC2CN3CCC2CC3)cc1 (stereo unspecified),inactive: 0.61%
23,O=[As](O)(c1cccs1)c1cccs1,inactive: 0.97%
24,CCC1=CC2Cc3nc4ccc(Cl)cc4c(N)c3C(C1)C2 (stereo unspecified),inactive: 0.42%
25,O=P1(Nc2ccccn2)COc2ccccc2OC1,inactive: -0.37%
26,CCOP(=O)(NC(=NC(C)c1ccccc1)NC(C)c1ccccc1)OCC (stereo unspecified),inactive: -1.62%

row,Structure (SMILES),inhibition
1,CN(CCCl)Cc1cc(Cl)c(NC2=NCCN2)c(Cl)c1,inactive: -0.06%
2,CCOP(=O)(Nc1ccc(C)cn1)OCC,inactive: 1.31%
3,Clc1n[nH]nc1-c1nn[nH][15n]1,inactive: -0.13%
4,O=P1(N(CCCl)CCCl)NCCC(C(F)(F)F)O1 (stereo unspecified),inactive: 1.07%
5,CC(C)(C)C(=O)NC(Sc1ncccn1)C(Cl)(Cl)Cl (stereo unspecified),inactive: -0.27%
6,COc1ccccc1CNC(=O)COC(=O)C(O)(c1ccccc1)c1ccccc1,inactive: -0.82%
7,CN(C(=O)Cc1ccc(Cl)c(Cl)c1)[C@@H]1CCCC[C@H]1N1CCCC1,inactive: 0.34%
8,CC(C)/C=N\N=C(\N)N[N+](=O)[O-],inactive: -0.8%
9,CN(C(=O)Cc1ccc(Cl)c(Cl)c1)C1CCCC[C@@H]1N1CCCC1 (stereo partly specified),inactive: -0.33%
10,CC1(CBr)Cn2c(nc3ccccc3c2=O)S1 (stereo unspecified),inactive: 1.34%
11,O=P(Nc1nccs1)(c1ccccc1)c1ccccc1,inactive: 1.79%
12,CC(C)C(=O)NC(Sc1ccccc1)C(Cl)(Cl)Cl (stereo unspecified),inactive: -1.22%
13,c1nnnn1CCn1cnnn1,inactive: 0.26%
14,CN(C)C1(CNC(=O)c2ccc(Cl)c(S(N)(=O)=O)c2)CCCCC1,inactive: -1.43%
15,O=P(Nc1ccccn1)(c1ccc(Br)cc1)c1ccc(Br)cc1,inactive: -2.6%
16,Nc1ccc(CCCCOc2ccccc2)cc1,inactive: -0.08%
17,COc1ccc(N)c([N+](=O)[O-])c1[N+](=O)[O-],inactive: -3.62%
18,O=P(Nc1nc2ccccc2s1)(c1ccccc1)c1ccccc1,inactive: 1.81%
19,C[C@H]1OP(=O)(Oc2ccccc2)[C@H](O)[C@H](O)[C@H]1N=[N+]=[N-] (stereo partly specified),inactive: 1.24%
20,O=[As](O)(c1ccccc1)c1ccc(O)cc1,inactive: 0.49%
21,CC(=O)NC(SC(=S)N(C)C)C(Cl)(Cl)Cl (stereo unspecified),inactive: -0.87%
22,O=[N+]([O-])c1ncn(CCn2cnc([N+](=O)[O-])n2)n1,inactive: -1.9%
23,O=C(OC1CN2CCC1CC2)c1cccc(Cl)c1 (stereo unspecified),inactive: -1.95%
